Data from publication doi:10.1101/2024.06.05.597555v1 (biorxiv, 2024).

Protein sequences, listed by entry. Tags and fused reporters are not part of them.
UniProt P29990, whole entry, looked up: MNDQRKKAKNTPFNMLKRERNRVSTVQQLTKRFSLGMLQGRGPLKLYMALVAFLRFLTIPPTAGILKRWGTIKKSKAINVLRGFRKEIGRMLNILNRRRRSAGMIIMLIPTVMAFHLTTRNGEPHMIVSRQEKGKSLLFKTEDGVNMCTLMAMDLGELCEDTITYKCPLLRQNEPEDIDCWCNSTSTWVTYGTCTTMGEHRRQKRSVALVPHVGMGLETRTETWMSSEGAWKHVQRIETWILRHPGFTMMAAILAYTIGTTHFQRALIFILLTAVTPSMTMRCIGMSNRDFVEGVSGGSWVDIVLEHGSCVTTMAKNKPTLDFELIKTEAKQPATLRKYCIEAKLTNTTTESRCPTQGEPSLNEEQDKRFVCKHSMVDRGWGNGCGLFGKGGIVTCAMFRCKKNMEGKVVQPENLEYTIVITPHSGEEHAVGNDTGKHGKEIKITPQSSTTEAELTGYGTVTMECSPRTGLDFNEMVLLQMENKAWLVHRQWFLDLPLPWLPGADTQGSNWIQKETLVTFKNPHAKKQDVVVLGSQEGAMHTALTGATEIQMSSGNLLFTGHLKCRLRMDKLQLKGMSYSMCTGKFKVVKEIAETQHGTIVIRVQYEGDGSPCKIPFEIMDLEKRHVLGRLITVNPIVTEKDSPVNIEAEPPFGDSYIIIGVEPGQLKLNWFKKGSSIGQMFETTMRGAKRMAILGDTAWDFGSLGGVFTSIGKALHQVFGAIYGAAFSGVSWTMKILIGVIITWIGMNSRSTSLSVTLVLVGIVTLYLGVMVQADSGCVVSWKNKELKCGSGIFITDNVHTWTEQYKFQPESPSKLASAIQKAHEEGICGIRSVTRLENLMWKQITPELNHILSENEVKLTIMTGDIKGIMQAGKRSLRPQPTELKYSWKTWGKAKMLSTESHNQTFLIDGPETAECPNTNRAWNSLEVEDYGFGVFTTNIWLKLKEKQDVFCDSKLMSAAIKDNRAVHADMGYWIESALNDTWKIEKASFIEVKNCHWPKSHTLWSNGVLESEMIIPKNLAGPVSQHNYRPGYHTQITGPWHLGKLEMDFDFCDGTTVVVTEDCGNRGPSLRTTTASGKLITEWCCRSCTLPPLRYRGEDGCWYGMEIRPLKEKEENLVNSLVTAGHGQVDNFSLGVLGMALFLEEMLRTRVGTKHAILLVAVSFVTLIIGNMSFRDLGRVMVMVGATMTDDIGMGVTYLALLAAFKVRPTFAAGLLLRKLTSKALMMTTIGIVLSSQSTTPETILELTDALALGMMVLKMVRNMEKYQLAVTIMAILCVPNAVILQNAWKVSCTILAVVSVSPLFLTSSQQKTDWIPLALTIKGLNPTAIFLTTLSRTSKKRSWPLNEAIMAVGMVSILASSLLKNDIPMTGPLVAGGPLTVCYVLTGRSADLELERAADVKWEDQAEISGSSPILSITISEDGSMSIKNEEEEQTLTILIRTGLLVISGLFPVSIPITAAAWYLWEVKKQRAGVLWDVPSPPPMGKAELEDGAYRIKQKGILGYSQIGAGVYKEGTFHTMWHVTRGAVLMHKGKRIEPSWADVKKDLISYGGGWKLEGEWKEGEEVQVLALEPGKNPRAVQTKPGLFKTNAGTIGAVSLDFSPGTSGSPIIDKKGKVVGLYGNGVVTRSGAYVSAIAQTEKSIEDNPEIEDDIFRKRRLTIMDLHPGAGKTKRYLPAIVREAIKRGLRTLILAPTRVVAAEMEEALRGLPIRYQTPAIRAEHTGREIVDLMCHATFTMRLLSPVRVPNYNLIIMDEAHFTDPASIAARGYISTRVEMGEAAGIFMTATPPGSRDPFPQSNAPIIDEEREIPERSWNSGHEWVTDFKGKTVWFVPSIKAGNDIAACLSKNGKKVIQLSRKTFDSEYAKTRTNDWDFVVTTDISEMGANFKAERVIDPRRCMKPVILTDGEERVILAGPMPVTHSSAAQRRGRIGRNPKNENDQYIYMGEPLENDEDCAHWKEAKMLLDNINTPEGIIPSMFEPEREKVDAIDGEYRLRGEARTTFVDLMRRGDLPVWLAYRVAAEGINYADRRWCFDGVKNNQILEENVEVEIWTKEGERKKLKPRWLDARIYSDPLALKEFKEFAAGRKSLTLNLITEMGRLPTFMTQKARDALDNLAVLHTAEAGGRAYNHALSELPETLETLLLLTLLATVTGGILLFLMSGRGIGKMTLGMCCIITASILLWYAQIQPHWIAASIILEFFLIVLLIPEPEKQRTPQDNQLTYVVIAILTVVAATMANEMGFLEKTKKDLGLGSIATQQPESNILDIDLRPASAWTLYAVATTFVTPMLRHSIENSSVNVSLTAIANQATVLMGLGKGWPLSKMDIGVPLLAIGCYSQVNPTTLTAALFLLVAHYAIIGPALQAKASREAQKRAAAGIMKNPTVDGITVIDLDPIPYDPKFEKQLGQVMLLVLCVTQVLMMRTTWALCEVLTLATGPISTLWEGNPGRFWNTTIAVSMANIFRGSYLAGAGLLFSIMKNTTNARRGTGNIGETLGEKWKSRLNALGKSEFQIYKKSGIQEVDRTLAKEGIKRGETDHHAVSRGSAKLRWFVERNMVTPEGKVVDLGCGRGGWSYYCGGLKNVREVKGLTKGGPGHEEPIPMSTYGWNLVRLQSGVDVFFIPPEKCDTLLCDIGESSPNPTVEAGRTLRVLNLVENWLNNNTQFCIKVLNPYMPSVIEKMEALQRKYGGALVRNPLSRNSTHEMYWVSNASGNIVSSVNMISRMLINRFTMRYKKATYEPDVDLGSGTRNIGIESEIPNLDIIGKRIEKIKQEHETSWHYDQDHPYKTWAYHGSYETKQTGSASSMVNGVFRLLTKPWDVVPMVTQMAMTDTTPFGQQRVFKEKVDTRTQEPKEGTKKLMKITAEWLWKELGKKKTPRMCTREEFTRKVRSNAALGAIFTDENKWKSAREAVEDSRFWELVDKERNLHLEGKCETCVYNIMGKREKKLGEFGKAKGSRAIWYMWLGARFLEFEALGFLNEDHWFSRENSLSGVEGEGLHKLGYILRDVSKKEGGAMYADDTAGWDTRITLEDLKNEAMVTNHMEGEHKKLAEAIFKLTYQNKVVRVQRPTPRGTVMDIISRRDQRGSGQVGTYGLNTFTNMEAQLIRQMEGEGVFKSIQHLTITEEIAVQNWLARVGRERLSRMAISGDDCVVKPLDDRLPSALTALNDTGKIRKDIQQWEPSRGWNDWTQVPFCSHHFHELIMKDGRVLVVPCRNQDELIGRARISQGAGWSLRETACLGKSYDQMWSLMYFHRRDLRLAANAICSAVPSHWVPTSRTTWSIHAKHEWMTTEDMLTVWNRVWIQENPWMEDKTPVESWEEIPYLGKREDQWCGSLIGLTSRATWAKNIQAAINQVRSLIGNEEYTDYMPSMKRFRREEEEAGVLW

Assays:
[1] = target: NS2B(H)-NS3pro (DENV-2 NS2B-NS3 protease) (Dengue virus 2 Thailand/NGS-C/1944, UniProt P14340); experiment: fluorometric protease assay, AMC substrate; format: biochemical; settings: pH 7.5, HEPES, CHAPS; substrate Bz-nKRR-AMC
[2] = target: DENV2proHeLa NS2B-NS3 protease (Dengue virus 2 Thailand/16681/84, UniProt P29990); experiment: DENV2proHeLa reporter gene assay; format: cell-based; settings: HeLa cells, intracellular protease

Row | Structure (SMILES) | IC50 [1] [µM] | EC50 [2] [µM] | % inhibition at 50 μM [1] [%]
1 | CC(=O)Nc1ccc(Oc2ccc(C(=O)N[C@H](C(=O)Nc3cccc(C(N)=O)c3)c3ccc(OCc4ccccc4)cc3)cc2)cc1 | 16 | 3.1 | –
2 | CC(C(=O)N[C@H](C(=O)Nc1cccc(C(N)=O)c1)c1ccc(OCc2ccccc2)cc1)c1cccc(C(=O)c2ccccc2)c1 (stereo partly shown) | 17 | 2.4 | –
3 | NC(=O)c1cccc(NC(=O)[C@@H](NC(=O)C2(c3ccccc3)CCCC2)c2ccc(OCc3ccccc3)cc2)c1 | 6.6 | 6 | –
4 | NCC1(CC(=O)N[C@H](C(=O)Nc2cccc(C(N)=O)c2)c2ccc(OCc3ccccc3)cc2)CCCCC1 | – | 21 | 26
5 | NC(=O)c1cccc(NC(=O)[C@@H](NC(=O)CC2(CNC(=O)c3ccccc3)CCCCC2)c2ccc(OCc3ccccc3)cc2)c1 | 12 | 3.7 | –
6 | NC(=O)c1cccc(NC(=O)[C@@H](NC(=O)CC2(CNC(=O)C3CCC3)CCCCC2)c2ccc(OCc3ccccc3)cc2)c1 | 9.2 | 3.8 | –
7 | NC(=O)c1cccc(NC(=O)[C@@H](NC(=O)c2ccc(Oc3ccccc3)cc2)C2CCCCC2)c1 | – | 3.9 | –
